{"sequences": {"note": "The chains behind the UniProt entries cited, without tags or fusion partners. Residues count along the entry.", "UniProt P0DPI0, 2-448 limits assumed": "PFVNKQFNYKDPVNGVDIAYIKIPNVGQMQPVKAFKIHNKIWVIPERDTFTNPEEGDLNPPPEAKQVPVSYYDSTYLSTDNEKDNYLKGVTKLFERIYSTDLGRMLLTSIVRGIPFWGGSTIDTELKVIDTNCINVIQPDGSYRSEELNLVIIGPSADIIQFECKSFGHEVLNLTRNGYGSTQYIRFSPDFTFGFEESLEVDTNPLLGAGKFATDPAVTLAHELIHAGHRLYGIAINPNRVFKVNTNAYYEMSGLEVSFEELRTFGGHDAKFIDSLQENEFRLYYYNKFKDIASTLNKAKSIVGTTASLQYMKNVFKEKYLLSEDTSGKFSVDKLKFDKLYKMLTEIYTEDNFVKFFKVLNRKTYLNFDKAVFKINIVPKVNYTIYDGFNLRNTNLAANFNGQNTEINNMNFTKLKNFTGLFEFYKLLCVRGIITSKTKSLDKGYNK"}, "source": "ChEMBL document CHEMBL3627621", "about": "“Interactions of a potent cyclic peptide inhibitor with the light chain of botulinum neurotoxin A: Insights from X-ray crystallography” (2015)", "key": {"[1]": {"target": "T1, Botulinum neurotoxin type A (Clostridium botulinum, UniProt P0DPI0)", "assay": "Inhibition of Clostridium botulinum BoNT/A light chain 448 residue preincubated for 30 mins by FRET assay"}, "[2]": {"target": "T1, Botulinum neurotoxin type A", "assay": "Inhibition of Clostridium botulinum truncated-BoNT/A light chain 424 residue preincubated for 30 mins by FRET assay"}, "[3]": {"target": "T1, Botulinum neurotoxin type A", "assay": "Inhibition of Clostridium botulinum BoNT/A light chain 448 residue coincubated with TCEP for 60 mins and TCEP absent during reaction by FRET assay"}, "[4]": {"target": "T1, Botulinum neurotoxin type A", "assay": "Inhibition of Clostridium botulinum BoNT/A light chain 448 residue coincubated with TCEP for 30 mins and TCEP present during reaction by FRET assay"}, "[5]": {"target": "T1, Botulinum neurotoxin type A", "assay": "Inhibition of Clostridium botulinum BoNT/A light chain 448 residue coincubated with TCEP for 60 mins and TCEP present during reaction by FRET assay"}, "[6]": {"target": "T1, Botulinum neurotoxin type A", "assay": "Inhibition of Clostridium botulinum BoNT/A light chain 448 residue coincubated with TCEP for 30 mins and TCEP absent during reaction by FRET assay"}, "[7]": {"assay": "Effect on BoNT/A-induced half paralysis in mouse phrenic nerve- hemidiaphragm assessed as half-paralysis time at 15 uM pretreated for 2 hrs (reference value: 159 +/- 22.1 min)"}}, "note": "pKi: −log10 of the molar value.", "data": [{"smiles": "C[C@H](O)[C@@H]1NC(=O)[C@H](Cc2cc3ccccc3[nH]2)NC(=O)[C@H](CCCNC(=N)N)NC(=O)[C@@H](N)CCNC(=O)[C@@H](N)CSSC[C@@H](C(N)=O)NC(=O)[C@H](CCCCN)NC1=O", "values": [{"measurement": "pKi", "setting": "[1]", "result": 6.33}]}, {"smiles": "CC(C)C[C@H](NC(=O)[C@@H]1CSSC[C@H](N)C(=O)NCC[C@H](N)C(=O)N[C@@H](CCCNC(=N)N)C(=O)N[C@@H](Cc2cc3ccccc3[nH]2)C(=O)N[C@@H]([C@H](C)O)C(=O)N[C@@H](CCCCN)C(=O)N1)C(N)=O", "note": "[listing 1 of 2 here]", "values": [{"measurement": "pKi", "setting": "[2]", "result": 7.41}, {"measurement": "pKi", "setting": "[3]", "result": 7.34}, {"measurement": "pKi", "setting": "[4]", "result": 6.80}, {"measurement": "pKi", "setting": "[5]", "result": 6.79}, {"measurement": "pKi", "setting": "[6]", "result": 7.58}, {"measurement": "pKi", "setting": "[1]", "result": 7.91}]}, {"smiles": "CC(C)C[C@H](NC(=O)[C@@H]1CSSC[C@H](N)C(=O)NCC[C@H](N)C(=O)N[C@@H](CCCNC(=N)N)C(=O)N[C@@H](Cc2cc3ccccc3[nH]2)C(=O)N[C@@H]([C@H](C)O)C(=O)N[C@@H](CCCCN)C(=O)N1)C(N)=O", "note": "[listing 2 of 2 here]", "values": [{"measurement": "Time", "setting": "[7]", "result": 167, "unit": "min"}]}]}
